This is an account of results in US11730723B2, “Compounds and methods for treating viral infections” (priority 2020, dated 2023).

In the data set the test system is HBV wild-type strain ayw1. In words: Primary anti-HBV assay in HepG2 2.2.15 cells (qPCR of HBV DNA). The settings on record: for SI50: CC50/EC50; for SI90: selectivity index at EC90.

The compound `CC(C)C[C@](C)(N)COc1ccc(-c2ccnc(C(F)F)c2)nc1C(F)F` [Compound 1, (S)-1-((2′,6-bis(difluoromethyl)-[2,4′-bipyridin]-5-yl)oxy)-2,4-dimethylpentan-2-amine] showed an SI50 of 5 and an SI90 of less than 1.
For `C=C1[C@H](CO)[C@@H](O)C[C@@H]1n1cnc2c(=O)[nH]c(N)nc21` [Entecavir] the same measures were >2,273 and 1.
